Measured values from several laboratories, pooled; numbers as filed in NIAID ChemDB.

All rows: tests in culture; agent: HIV-1; measure: fold resistance

An empty or dashed field is not shown.

smiles	strain	read by	cells	mutations	result
O=c1[nH]cnc2c1ncn2[C@H]1CC[C@@H](CO)O1	RTMN(181 184) (RT M41L Y181C M184V T215Y)	plaque count	HT4 + HT4 LacZ-1	RT-M41L Y181C M184V T215Y	2.06
Nc1ccn([C@H]2C=C[C@@H](CO)O2)c(=O)n1	HXB2	plaque count	CD4+HELA + HeLa	RT-L74V	0.88
O=c1[nH]cnc2c1ncn2[C@H]1CC[C@@H](CO)O1	RT-M41L T69SSG T215Y	β-galactosidase	HeLa	RT M41L T69SSG insertion T215Y	3.13
C=C(C)OC(=O)N1c2cc(Cl)ccc2NC(=S)C1(C)C	B9 (RT L100I V106A G190A)	p24	H9	RT-L100I V106A G190A	>1670
CC(C)CN(C[C@@H](O)[C@H](Cc1ccccc1)NC(=O)O[C@H]1CCOC1)S(=O)(=O)c1ccc(N)cc1	IIIB	p24 / ELISA	MT-2	K112M K113E V128I M200I H219P I401T R409K D437N L441P R41K	1.2
CC(C)CN(C[C@@H](O)[C@H](Cc1ccccc1)NC(=O)O[C@H]1CCO[C@H]2OCC[C@H]21)S(=O)(=O)c1ccc2nc(NC3CC3)sc2c1	NL4-3	p24 / luminescence	MT-4	L10F K20T D30N K45I A71V V77I	2.7
CC[C@H]1C(=O)Nc2ccc(F)cc2N1C(=O)OC(C)C	Q-1 (RT T139K Y181C Y188D/Y)	cytopathic effect	CEM	RT-T139K Y181C Y188D/Y	36
Nc1ccn([C@@H]2CO[C@H](CO)S2)c(=O)n1	RF	p24	C8166	RT-M41L	0.8
CCOP(=O)(COc1ccc(C[C@H](NC(=O)O[C@H]2CO[C@H]3OCC[C@H]32)[C@H](O)CN(CC(C)C)S(=O)(=O)c2ccc(OC)cc2)cc1)OCC	IIIB	p24 / ELISA	MT-2	I401T R409K D437N	3.5
O=C(NCc1ccc(F)cc1)c1nc(N2CCCCS2(=O)=O)c2cccnc2c1O				INTG-Q148K	21
CC(C)(C)NC(=O)[C@@H]1C[C@@H]2CCCC[C@@H]2CN1C[C@@H](O)[C@H](Cc1ccccc1)NC(=O)[C@H](CC(N)=O)NC(=O)c1ccc2ccccc2n1	RF	p24	C8166	PR-G48V L90M	28.6
Nc1ccn([C@H]2C[C@H](O)[C@](CO)(CF)O2)c(=O)n1	RTMDR	β-galactosidase	HeLa	RT	0.848
CN[C@H]1CO[C@@H]2OCC[C@H](OC(=O)N[C@@H](Cc3cccc(OC)c3)[C@H](O)CN(CC(C)C)S(=O)(=O)c3ccc4nc(NC(C)C)sc4c3)[C@@H]21	NL4-3	p24 / luminescence	MT-4	L10I I54V K20R L24I V32I L33F M36I M46I I54M L63P K70Q V82I I84V L89M	2.9
Cc1cn([C@H]2C[C@H](N=[N+]=[N-])[C@@H](CO)O2)c(=O)[nH]c1=O	P035A (RT-T215Y)	plaque count	HT4 + HT4-6C	RT-T215Y	56
COC(=O)N[C@H](C(=O)N[C@@H](Cc1ccccc1)[C@@H](O)CN(Cc1ccc(-c2ccccn2)cc1)NC(=O)[C@@H](NC(=O)OC)C(C)(C)C)C(C)(C)C	NL4-3	p24 / luminescence	MT-4	L10I I54V K20R L24I V32I L33F M36I M46I I54M L63P K70Q V82I I84V L89M	>213
Cc1ccnc2c1NC(=O)c1cccnc1N2C1CC1	HEPT-resistant (RT P236L)	cytopathic effect / XTT	CEM + CEM-SS	RT-P236L	2
Nc1ccn([C@@H]2CO[C@H](CO)S2)c(=O)n1	HXB2D (RT-M184V)	RT activity	CBMC	RT-M184V	0.818
Cc1c(Sc2ccccc2)n(COCCO)c(=O)[nH]c1=O	IIIB	cytopathic effect / XTT	CEM + CEM-SS	RT-L100I	>11
C#C[C@]1(CO)O[C@@H](n2cc(I)c(=O)[nH]c2=O)C[C@@H]1O	RTMDR	β-galactosidase	HeLa	RT	0.865
O=c1[nH]cnc2c1ncn2[C@@H]1O[C@H](CO)C[C@@H]1F	RT P119S L214F	p24	MT-2	RT-P119S L214F	3.5
CC(C)=CCOc1cc(NC(=S)c2ccoc2C)ccc1Cl	C-1 (RT-K101E)	cytopathic effect	CEM	RT-K101E	3
Cc1cn([C@H]2C=C[C@@H](CO)O2)c(=O)[nH]c1=O	HXB2	β-galactosidase	MAGI (CCR5) + MAGI	RT-K65R	1.1
O=C1O[C@H]2[C@@H]3OC(=O)c4cc(O)c(O)c(O)c4-c4c(cc(O)c(O)c4O)C(=O)OC[C@H]2O[C@@H](OC(=O)c2cc(O)c(O)c(O)c2)[C@@H]3OC(=O)c2cc(O)c(O)c3c2[C@@H]2C1=CC(=O)[C@](O)(O3)C2(O)O	NNRTI-resistant (RT Y181C) ARP1013		MAGI	RT-Y181C	2.84
CCCN(C)C(=O)Oc1nsnc1-c1c(Cl)ccc(N)c1Cl	IIIB	MTT	MAGI	RT-V189I T240I	>526
Cc1cn([C@H]2C[C@H](N=[N+]=[N-])[C@@H](CO)O2)c(=O)[nH]c1=O	4xAZT(RT-D67N K70R T215Y K219Q)	cytopathic effect / XTT	CEM + CEM-SS	RT-D67N K70R T215Y K219Q	820
Nc1nc(=O)n([C@@H]2CS[C@H](CO)O2)cc1F	RTMC (RT D67N K70R T215F K219Q)		HT4 + HT4 LacZ-1	RT-D67N K70R T215F K219Q	4
Cc1cn([C@H]2C[C@H](N=[N+]=[N-])[C@@H](CO)O2)c(=O)[nH]c1=O	T215Y(RT-T215Y)	p24	MT-2	RT-T215Y	5.6
COc1cc(C(F)(F)F)cc(S(=O)(=O)c2cccc(N)c2C#N)c1		β-galactosidase	HeLa + HELA CD4+	RT-E138K	2.07
O=c1[nH]cnc2c1ncn2[C@H]1CC[C@@H](CO)O1	T215Y(RT-T215Y)	p24	MT-2	RT-T215Y	1.8
CC(C)=CCN1Cc2cc(Cl)cc3[nH]c(=S)n(c23)C[C@@H]1C	BCF02		PBMC	RT-A98G V106I Y181C	>312.5
CC(C)(C)C(=O)c1sc(C(=O)NCc2ccccc2)c(O)c1O				INTG-V151I	1
CN[C@H]1CO[C@@H]2OCC[C@H](OC(=O)N[C@@H](Cc3ccccc3)[C@H](O)CN(CC(C)C)S(=O)(=O)c3ccc4nc(NC5CC5)sc4c3)[C@@H]21	NL4-3	p24 / luminescence	MT-4	L10I I15V K20R L24I V32I M36I M46I L63P K70Q V82A I84V L89M	0.6
CC(C)=CCN1c2cc(Cl)cc3[nH]c(=S)n(c23)C[C@@H]1C			MT-4	RT-D67N K70R T215Y K219Q A98G	2
Cc1ccc2ccccc2c1-n1c(C)nnc1SCC(=O)Nc1ccccc1Br	NL4-3	luciferase	HeLa + HeLa-JC53	RT-Y188L	210
CC(=O)c1ccc(C)cc1NC(C(N)=O)c1c(Cl)cccc1Cl	Costatolide-resistant (RT L100I T139I)	XTT	CEM + CEM-SS	RT-L100I T139I	3
Nc1ccn([C@@H]2CS[C@H](CO)O2)c(=O)n1	Recombinant	p24	PBMC	RT-M184V	2.5
O=c1[nH]cnc2c1ncn2[C@H]1CC[C@@H](CO)O1				RT-L74V	>2
N#Cc1cc2[nH]c3ccccc3c2n(-c2ccc([N+](=O)[O-])cc2)c1=O	Recombinant	luciferase	HeLa	RT-M41L A62V S68N G112S M184V	>1
CC(C)CN(C[C@@H](O)[C@H](Cc1ccccc1)NC(=O)[C@H](CC(N)=O)NC(=O)c1ccc2ccccc2n1)C(=O)NC(C)(C)C	NL4-3	p24	MT-4	PR-L10R L63P V82T	2
COC(=O)c1cc2c(c(OC)c1-c1ccc(N(C)C)cc1)OCO2	IIIB	fluorescence	C8166	SJP-L-5-resistant	1240
Cn1c2ccccc2c2c1cc(C#N)c(=O)n2-c1ccc([N+](=O)[O-])cc1	NRTI resistant	luciferase	HeLa	RT-M41L D67N M184V L210W T215Y	5.7
CC(C)(C)NC(=O)[C@@H]1C[C@@H]2CCCC[C@@H]2CN1C[C@@H](O)[C@H](Cc1ccccc1)NC(=O)[C@H](CC(N)=O)NC(=O)c1ccc2ccccc2n1	NL4-3	p24	MT-4	PR-L10R M46I L63P V82T	1
Cc1ccc(-n2c(C)nnc2SCC(=O)Nc2cccc(C)c2C)cc1	NL4-3	luciferase	HeLa + HeLa-JC53	RT-K103N Y181C	>167
Cc1occc1C(=S)Nc1ccc(Cl)c(/C=N/OC(C)(C)C)c1	UC10/costatolide-resistant (RT K103N)	cytopathic effect / XTT	CEM + CEM-SS	RT-K103N	36.5
Cc1cc(Br)cc(S(=O)(=O)c2cccc(N)c2C#N)c1		β-galactosidase	HeLa + HELA CD4+	RT-V108I Y181C	1180
Cc1cn([C@H]2C[C@H](N=[N+]=[N-])[C@@H](CO)O2)c(=O)[nH]c1=O				INTG-N155H	1
CCN[C@H]1CO[C@@H]2OCC[C@H](OC(=O)N[C@@H](Cc3cccc(OC)c3)[C@H](O)CN(CC(C)C)S(=O)(=O)c3ccc4nc(NC(C)C)sc4c3)[C@@H]21	NL4-3	p24 / luminescence	MT-4	L10I M46L I54V V82A	1.3
Cc1ccnc2c1NC(=O)c1cccnc1N2C1CC1	A1(RT-G190E)	p24	H9	RT-G190E	>111
Cc1ccnc2c1NC(=O)c1cccnc1N2C1CC1	BCF01		PBMC	RT-A98G K103R Y181C	150
Cc1cn([C@H]2C=C[C@@H](CO)O2)c(=O)[nH]c1=O	Recombinant	p24	PBMC	RT-Q151M	0.025
Nc1nc2c(ncn2[C@H]2CO[C@@H](CO)O2)c(=O)[nH]1	RT M184V T215Y K219Q			RT-M184V T215Y K219Q	1.1
Nc1ccn([C@H]2CC[C@@H](CO)O2)c(=O)n1	HXB2	plaque count	CD4+HELA + HeLa	RT-V75T T215Y	15.7
CCc1ccc(-n2c(C)nnc2SCC(=O)Nc2ccccc2Br)c2ccccc12	NL4-3	luciferase	HeLa + HeLa-JC53	RT-Y188L	116
Cc1cn([C@H]2C[C@H](N=[N+]=[N-])[C@@H](CO)O2)c(=O)[nH]c1=O	RUD (RT-A98G)		PBMC	RT-A98G	1
Cc1cn([C@H]2C[C@H](N=[N+]=[N-])[C@@H](CO)O2)c(=O)[nH]c1=O	IIIB BCH-189-resistant (RT M184V)	p24	MT-4	RT-M184V	0.75
CC(C)Nc1cccnc1N1CCN(C(=O)c2cc3cc(NS(C)(=O)=O)ccc3[nH]2)CC1	P-1 (RT-K103N Y144F)	cytopathic effect	CEM	RT-K103N Y144F	423
O=c1[nH]cnc2c1ncn2[C@H]1CC[C@@H](CO)O1	RTMC (RT-Y181C)	plaque count	HT4 + HT4 LacZ-1	RT-D67N K70R Y181C T215Y K219Q	1
C#C[C@]1(CO)O[C@@H](n2cc(C)c(=O)[nH]c2=O)C[C@@H]1O	RT-M41L/T215Y	β-galactosidase	HeLa	RT-M41L T215Y	1.19
Cc1ccc2c(C)ccc(-n3c(C)nnc3SCC(=O)Nc3ccc(S(N)(=O)=O)cc3Cl)c2c1	NL4-3	luciferase	HeLa + HeLa-JC53	RT-Y188L	10
Cc1cn([C@H]2C=C[C@@H](CO)O2)c(=O)[nH]c1=O	Recombinant	luciferase	HeLa	RT-V118I M184V	1.3
Cc1nnc(SCC(=O)Nc2ccc(S(N)(=O)=O)cc2Cl)n1-c1cccc2cccnc12	NL4-3	luciferase	HeLa + HeLa-JC53	RT-Y188L	600
CCN(c1nc(F)ccc1NC(C)(C)C)C1CCN(C(=O)c2cc3cc(NC(=O)N4CCN(C)CC4)ccc3[nH]2)CC1	IIIB	p24 / ELISA	MT-2	M200I	0.9
Nc1ccn([C@H]2CC[C@@H](CO)O2)c(=O)n1	RTMC (RT D67N K70R T215F K219Q)		HT4 + HT4 LacZ-1	RT-D67N K70R T215F K219Q	1.71
Nc1ncnc2c1ncn2CCOCP(=O)(O)O	K65R(RT-K65R)	p24	MT-2	RT-K65R	0.4
Nc1nc(=O)n([C@@H]2CS[C@H](CO)O2)cc1F	HXB2	plaque count	HT4 + HT4 LacZ-1	RT-Y181C	0.222
CCc1c(Sc2ccccn2)n(COCc2ccccc2)c(=O)[nH]c1=O	NL4-3	cytopathic effect / XTT	CEM + CEM-SS	RT-V106I	51.1
C#C[C@@]1(CO)C=C[C@H](n2cc(C)c(=O)[nH]c2=O)O1	NL4-3	β-galactosidase	MAGI (CCR5) + MAGI	RT-M184V	2.925
Cc1cc(S(N)(=O)=O)ccc1NC(=O)COc1ccc(Cl)cc1C(=O)c1cc(Cl)cc(C#N)c1	NNRTI-resistant (RT V106I)	β-galactosidase	MAGI	RT-V106I	2.1
Cc1cn([C@H]2C[C@H](N=[N+]=[N-])[C@@H](CO)O2)c(=O)[nH]c1=O	NL4-3	XTT	CEM + CEM-SS	RT-V179D	3
Cc1cc(O)cc(S(=O)(=O)c2cccc(N)c2C#N)c1		β-galactosidase	HeLa + HELA CD4+	RT-K103N	167
Nc1ccn([C@H]2CC[C@@H](CO)O2)c(=O)n1	JF18(RT-D67N T215Y)	plaque count	HELA-CD4+	RT-D67N T215Y	1.29
C/C=C/CSc1cc(NC(=S)c2ccsc2C)ccc1Cl	HEPT-resistant (RT P236L)	cytopathic effect / XTT	CEM + CEM-SS	RT-P236L	2
C[C@H](Cn1cnc2c(N)ncnc21)OCP(=O)(O)O	G691-2 AZT-resistant (RT D67N K70R T215Y K219Q)	p24	MT-2	RT-D67N K70R T215Y K219Q	0.306
Cc1ccnc2c1NC(=O)c1cccnc1N2C1CC1	HEPT-resistant (RT P236L)	XTT	CEM + CEM-SS	RT-P236L	2

Fold resistance: result on the changed form divided by that on wild type. Conditions beyond the fields shown may differ between rows.